This assay has as its target human noradrenaline transporter (hNET) (human), P23975. Put plainly: cell-based or functional assay.

B1: SEQ ID NO. 148 (peptide)
peptide: VCCGYKLCC
modifications: not checked
B1 registered an Av IC50, inhibition of NA uptake via hNET (log M (unit not given)) of -6.46.

B2: SEQ ID NO. 89 (peptide)
peptide: YNGVCCGYKLCRPC
modifications: not checked
The molecule B2 gave an Av IC50, inhibition of NA uptake via hNET (log M (unit not given)) of -6.95.

B3: SEQ ID NO. 82 (peptide)
peptide: WNGVCCGYKLCHPC
modifications: not checked
B3 yielded an Av IC50, inhibition of NA uptake via hNET (log M (unit not given)) of -5.5.

B4: SEQ ID NO. 146 (peptide)
peptide: NGVCCGYKLCHPC
modifications: not checked
As to B4, the Av IC50, inhibition of NA uptake via hNET (log M (unit not given)) is -6.13.

B5: SEQ ID NO. 92 (peptide)
peptide: WKDVCCGYKLCWPC
modifications: not checked
In turn, B5 came in with an Av IC50, inhibition of NA uptake via hNET (log M (unit not given)) of -7.44.

The record behind these values is US20060270832A1, “Type II chi-conotoxin peptides (noradrenaline transporter inhibitors)” (published 2006).
